Laboratory results: PubChem BioAssay AID504761 (Drosophila RNAi Screening Center, 2011)
Test: 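Insect host genes that dengue virus relies on to spread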 (primary screen). System: D.Mel-2 cells from Drosophila. Knock-down reagent: long dsRNA against Drosophila genes. Conditions: infection with dengue virus type 2; dose and infection time not stated. Detection: 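Cells stained for dengue envelope protein and imaged; percent of infected cells per well on duplicate plates, ranked by infection, with stained nuclei counted for cell number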. Direction: infection score: higher = more virus-infected cells; cell count: higher = more cells in the well. Hit rule: 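Low infection ranks in the two replicates (chance level up to 0.065) followed by a retest with a 1.5-fold or larger significant decrease, p below 0.05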. Calls: active = confirmed: knock-down lowers infection; inactive = not picked or not confirmed.
In all, the deposit lists about 22,000 reagents; shown is a random part of those that have a named target and a result. Of all reagents, 116 (0.52%) got an active call. 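Calls depend on retest data that are not deposited; infection was ranked per plate without normalising between plates; the unit of the infection score is not given.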 The raw values are shown without normalisation. A plus sign joins genes that one reagent is predicted to hit. Not stated in the record: the amount of reagent, the time to read-out.

The opening 2 records, ahead of the listing:
| Target gene | amplicon | infection score, replicate 1 | infection score, replicate 2 | cell count, replicate 1 | cell count, replicate 2 | activity call |
| --- | --- | --- | --- | --- | --- | --- |
| Ask1 | DRSC16789 | 9.21 | 17.3 | 2139 | 3444 | inactive |
| Ask1 | DRSC21697 | 1.32 | 1.45 | 6532 | 6702 | inactive |

The listing, from the first entry:
| Target gene | amplicon | infection score, replicate 1 | infection score, replicate 2 | cell count, replicate 1 | cell count, replicate 2 | activity call |
| --- | --- | --- | --- | --- | --- | --- |
| Ask1 | DRSC16789 | 9.21 | 17.3 | 2139 | 3444 | inactive |
| Ask1 | DRSC21697 | 1.32 | 1.45 | 6532 | 6702 | inactive |
| Yp1 | DRSC18731 | 0.42 | 0.91 | 6423 | 6620 | inactive |
| Yp1 | DRSC27876 | 6.14 | 17.4 | 6887 | 5704 | inactive |
| CG13051 | DRSC09932 | 1.15 | 1.6 | 6251 | 6174 | inactive |
| Sems | DRSC11626 | 8.06 | 17.3 | 6439 | 6323 | inactive |
| Sems | DRSC25887 | 12.5 | 1.59 | 5924 | 6163 | inactive |
| CG11170 | DRSC04090 | 11 | 16.9 | 6371 | 5952 | inactive |
| CG11170 | DRSC29191 | – | 12.5 | 373 | 6398 | inactive |
| Hsp60B | DRSC00542 | 2.86 | 3.59 | 6155 | 6093 | inactive |
| Mal-B1 | DRSC02416 | 4.85 | 7.16 | 6579 | 6553 | inactive |
| Mal-B1 | DRSC25542 | 9.56 | 5.37 | 5700 | 5776 | inactive |
| CG14312 | DRSC14791 | 9.55 | 0.74 | 4042 | 7036 | inactive |
| bol | DRSC08964 | 4.87 | 2.35 | 5795 | 6005 | active |
| bol | DRSC10444 | 2.12 | 3.64 | 5900 | 5848 | inactive |
| bol | DRSC11329 | 1.22 | 1.47 | 5827 | 5837 | inactive |
| bol | DRSC26869 | 6.5 | 7.32 | 6449 | 6656 | inactive |
| CG7179 | DRSC25007 | 7.82 | 8.46 | 6180 | 6856 | inactive |
| Idh3g | DRSC15699 | 4.61 | 5.95 | 5861 | 2991 | inactive |
| Idh3g | DRSC26628 | 2.08 | 12.2 | 5826 | 4570 | inactive |
| CG5770 | DRSC06954 | 18.8 | 9.81 | 5832 | 6321 | inactive |
| CG5770 | DRSC24281 | 2.38 | 4.24 | 6465 | 5707 | inactive |
| melt | DRSC11367 | 3.01 | 2.92 | 6472 | 5963 | inactive |
| Or10a | DRSC20264 | 1.47 | 14.5 | 750 | 5588 | inactive |
| Or10a | DRSC27634 | 2.55 | 13.2 | 6740 | 3608 | inactive |
| Amacr | DRSC03198 | 14 | 25.2 | 6204 | 6242 | inactive |
| Prx2 | DRSC20256 | 3.88 | 2.06 | 6554 | 6200 | inactive |
| Prx2 | DRSC29996 | 13.5 | 6.15 | 6199 | 6148 | inactive |
| CG13384 | DRSC02258 | 4.74 | 3.58 | 6223 | 5925 | inactive |
| CG13071 | DRSC09954 | 2.38 | 0.35 | 5972 | 6218 | inactive |
| PDCD-5 | DRSC09955 | 3.88 | 1.36 | 5664 | 5801 | inactive |
| rib | DRSC07021 | 16.5 | 17.1 | 5184 | 2334 | inactive |
| Elys | DRSC19571 | 11.3 | 5.98 | 1489 | 920 | inactive |
| Ect3 | DRSC15462 | 5.62 | 4.62 | 6693 | 6608 | inactive |
| Ect3 | DRSC25392 | 4.04 | 3.12 | 6753 | 7016 | inactive |
| lz | DRSC18790 | 0.32 | 1.02 | 6501 | 7131 | active |
| lz | DRSC22302 | 0.67 | 2.18 | 6153 | 6562 | inactive |
| lz | DRSC25157 | 9.7 | 2.21 | 6250 | 6201 | inactive |
| Ir56c | DRSC06544 | 2.66 | 12 | 6923 | 6218 | inactive |
| Ir56c | DRSC26227 | 0.55 | 0.94 | 6188 | 5834 | active |
| dar1 | DRSC08233 | 0.86 | 3.95 | 6246 | 5900 | inactive |
| krz | DRSC16979 | – | 11.8 | 402 | 4067 | inactive |
| Oxp | DRSC06712 | 20.4 | 15.6 | 5417 | 7098 | inactive |
| bwa | DRSC01749 | 1.07 | 3.29 | 6193 | 6529 | inactive |
| bwa | DRSC02310 | 5.43 | 4.77 | 6184 | 6421 | inactive |
| CG32944 | DRSC12138 | 2.65 | 1.15 | 6687 | 6343 | inactive |
| CG32944 | DRSC12341 | 2.28 | 1.06 | 6887 | 6591 | inactive |
| CG13579 | DRSC04215 | 19.3 | 8.81 | 5013 | 6682 | inactive |
| CG13579 | DRSC25603 | 4.93 | 8.61 | 6690 | 5735 | inactive |
| ppk28 | DRSC19919 | 3.83 | 2.33 | 6274 | 6341 | inactive |
| DnaJ-H | DRSC03273 | 3.47 | 19.3 | 5584 | 4184 | inactive |
| Pvf3 | DRSC02284 | – | – | 548 | 527 | inactive |
| Pvf3 | DRSC02285 | 5.01 | 9.44 | 1797 | 2584 | inactive |
| Pvf3 | DRSC02286 | 15.2 | 3.18 | 5930 | 1037 | inactive |
| Pvf3 | DRSC02751 | 12.5 | 10.3 | 6057 | 1719 | inactive |
| Pvf3 | DRSC25172 | 6.43 | 5.77 | 6172 | 6433 | inactive |
| Pvf3 | DRSC28641 | 14.6 | 7.32 | 1577 | 1229 | inactive |
| Cpr50Ca | DRSC05454 | 2.57 | 3 | 6068 | 5838 | inactive |
| Cpr50Ca | DRSC06372 | 24.7 | 13.8 | 5397 | 6080 | inactive |
| Cpr50Ca | DRSC06375 | 16.5 | 19.9 | 4451 | 6233 | inactive |
| LysD | DRSC26238 | 13.1 | 9.56 | 5201 | 5710 | inactive |
| CG31953 (retired record) + gkt | DRSC00709 | 3.64 | 6.09 | 6370 | 6373 | inactive |
| JYalpha | DRSC17224 | 1.49 | 4.95 | 6372 | 6668 | inactive |
| CG17739 | DRSC06689 | 4.56 | 7.34 | 6097 | 6379 | inactive |
| CG17739 | DRSC26518 | 2.19 | 6.33 | 5977 | 5956 | inactive |
| Bet5 | DRSC14600 | 4.18 | 1.78 | 981 | 6446 | inactive |
| CG12974 | DRSC11684 | 5.98 | 2.28 | 6209 | 6355 | inactive |
| RYa-R | DRSC16757 | 4.13 | 2.71 | 6366 | 7008 | inactive |
| Rgk3 | DRSC04250 | 11.2 | 7.96 | 6532 | 6730 | inactive |
| Rgk3 | DRSC04254 | 3.7 | 12.6 | 6003 | 6546 | inactive |
| Rgk3 | DRSC04255 | 8.1 | 12 | 5914 | 5507 | inactive |
| Rgk3 | DRSC28131 | 16 | 12.9 | 5833 | 5396 | inactive |
| CG8517 | DRSC07205 | 1.24 | 4.81 | 6107 | 5901 | inactive |
| CG32036 | DRSC10362 | 11.8 | 6.72 | 5556 | 5744 | inactive |
| CG32036 | DRSC28171 | 5.8 | 34.4 | 6987 | 4925 | inactive |
